Source: publication PMC3531269, “A bivalent recombinant protein inactivates HIV-1 by targeting the gp41 prehairpin fusion intermediate induced by CD4 D1D2 domains” (Retrovirology, 2012)

Experiments:
[1] = target: T1, N-peptide N36 ([…] of HIV-1 HXB2 gp41 NHR) (HIV-1 HXB2); assay: ELISA; conditions: both partners purified
T1 construct: source: synthetic peptide

[2] = target: T1, N-peptide N36 ([…] of HIV-1 HXB2 gp41 …); assay: native gel or EMSA; conditions: both partners purified

| Binder | binding result [1] | binding result [2] |
| --- | --- | --- |
| C34-biotin (C-peptide C34, […] of HIV-1 HXB2 gp41 CHR, biotin-labelled) (biotin (position not given), source: synthetic peptide) peptide: not shown | binds | – |
| C34-FAM (C-peptide C34, […] of HIV-1 HXB2 gp41 CHR, FAM-labelled) (FAM (position not given), source: synthetic peptide) peptide: not shown | – | binds |
